Assay: Inhibition of SARS coronavirus 3C-like protease R188I mutant by HPLC

Structure (SMILES) | IC50
CC(=O)N[C@H](C(=O)N[C@@H](CO)C(=O)N[C@@H](C)C(=O)N[C@H](C(=O)N[C@@H](CC(C)C)C(=O)N[C@H](C=O)CCC(=O)N(C)C)C(C)C)[C@@H](C)O | 26 µM
CC(=O)N[C@@H](CO)C(=O)N[C@@H](C)C(=O)N[C@H](C(=O)N[C@@H](CC(C)C)C(=O)N[C@H](C=O)CCC(=O)N(C)C)C(C)C | 37 µM
